A mixed list of measured activities; the numbers were collected in NIAID ChemDB.

Common to all: tests on isolated targets; agent: HIV-1; protein: Protease; endpoint: IC50

Conditions beyond the fields shown may differ between rows.

{"compound": "CCN(CC[C@@H](O)[C@H](Cc1ccccc1)NC(=O)c1cccc(O)c1C)S(=O)(=O)c1c(C)cc(C)cc1C", "result": "0.8 µM"}
{"compound": "CC(C)[C@H](NC(=O)OCc1cncs1)C(=O)N[C@@H](Cc1ccccc1)[C@H](O)CN1CCN(Cc2ccccc2)C[C@H]1C(=O)NC(C)(C)C", "read by": "substrate cleavage", "result": "<1 µM"}
{"compound": "O=C(N[C@H]1c2ccccc2C[C@H]1O)[C@H](CCc1ccccc1)CS(=O)C[C@H](CCc1ccccc1)C(=O)N[C@H]1c2ccccc2C[C@H]1O", "result": "0.0531 µM"}
{"compound": "COC(=O)[C@]12CCC(C)(C)C[C@H]1C1=CC[C@@H]3[C@@]4(C)CC[C@H](OC(=O)CCCCC(=O)O)C(C)(C)[C@@H]4CC[C@@]3(C)[C@]1(C)CC2", "read by": "HPLC", "result": "7.5 µM"}
{"compound": "Cc1c(O)cccc1C(=O)N[C@@H](Cc1ccc(-c2cccs2)cc1)[C@H](O)CN1C[C@H]2CCCC[C@H]2C[C@H]1C(=O)NC(C)(C)C", "result": "0.006 µM"}
{"compound": "COc1ccccc1C[C@H](C[C@H](O)[C@H](Cc1ccccc1)NC(=O)OC(C)(C)C)C(=O)N[C@H](C(=O)N[C@@H](Cc1ccccc1)C(=O)N1CCOCC1)C(C)C", "read by": "fluorescence", "result": "0.011 µM"}
{"compound": "CC(C)c1ncc(CN(C)C(=O)N[C@H](C(=O)N[C@@H](Cc2ccccc2)[C@H](O)CN2C[C@H]3CCCC[C@H]3C[C@H]2C(=O)NC(C)(C)C)C(C)C)s1", "read by": "substrate cleavage", "result": "~0.0005 µM"}
{"compound": "C[C@H]1[C@H](C)CC[C@]2(C(=O)O)CC[C@]3(C)C(=CC[C@@H]4[C@@]5(C)CC[C@H](OC(=O)C(=O)O)C(C)(C)[C@@H]5CC[C@]43C)[C@H]12", "read by": "HPLC", "result": "7 µM"}
{"compound": "O=C(N[C@H]1c2ccccc2C[C@H]1O)[C@@H](Cc1ccccc1)CS(=O)C[C@H](Cc1ccccc1)C(=O)N[C@H]1c2ccccc2C[C@H]1O", "result": ">10 µM"}
{"compound": "CCC(CC[C@@H](C)[C@H]1CC[C@H]2[C@@H]3CC=C4C[C@@H](OC5OC(CO)C(O)C(O)C5O)CC[C@]4(C)[C@H]3CC[C@]12C)C(C)C", "result": ">100 µM"}
{"compound": "CC1(C)CC[C@]2(C(=O)O)CC[C@]3(C)C(=CCC4[C@@]5(C)CC[C@H](OC(=O)CCC(=O)O)C(C)(C)C5CC[C@]43C)C2C1", "read by": "HPLC", "result": "4 µM"}
{"compound": "CC(=O)N(CC[C@@H](O)[C@H](Cc1ccccc1)NC(=O)c1cccc(O)c1C)[C@H](Cc1ccccc1)C(=O)NC(C)(C)C", "result": "3.6 µM"}
{"compound": "CC(=O)Nc1ccc(S(=O)(=O)N(CC(C)C)C[C@@H](O)[C@H](CCc2ccccc2)NC(=O)CN2C(=O)c3ccccc3S2(=O)=O)cc1", "result": "0.02 µM"}
{"compound": "CC(C)c1nc(COC(=O)N[C@H](C(=O)N[C@@H](Cc2ccccc2)[C@H](O)CN2CCN(Cc3nc4ccccc4[nH]3)C[C@H]2C(=O)NC(C)(C)C)C(C)C)cs1", "read by": "substrate cleavage", "result": "<0.0005 µM"}
{"compound": "CC1(C)CC[C@]2(C(=O)O)CC[C@]3(C)C(=CC[C@@H]4[C@@]5(C)CC[C@H](O)C(C)(C)[C@@H]5CC[C@]43C)[C@@H]2C1", "read by": "HPLC", "result": "8 µM"}
{"compound": "NC(=O)C[C@H]1C[C@@H](C2=CN[C@@](Cc3ccccc3)(C[C@H](O)[C@H](CCc3ccccc3)NC(=O)O[C@H]3CCOC3)C2=O)c2ccccc21", "result": "0.0024 µM"}
{"compound": "CC(C)c1ncc(COC(=O)N[C@H](C(=O)N[C@@H](Cc2ccccc2)[C@H](O)CN2C[C@H]3CCCC[C@H]3C[C@H]2C(=O)NC(C)(C)C)C(C)C)s1", "read by": "substrate cleavage", "result": "~0.0005 µM"}
{"compound": "COC(=O)[C@]12CCC(C)(C)CC1C1=CCC3[C@@]4(C)CC[C@@H](NC(=O)CCCCC(=O)O)C(C)(C)C4CC[C@@]3(C)[C@]1(C)CC2", "read by": "HPLC", "result": "3.5 µM"}
{"compound": "COc1cc(C[C@H](C[C@H](O)[C@H](Cc2ccccc2)NC(=O)OC(C)(C)C)C(=O)N[C@H](C(=O)N[C@@H](Cc2ccccc2)C(=O)N2CCOCC2)C(C)C)cc(OC)c1OC", "read by": "fluorescence", "result": "0.022 µM"}
{"compound": "CC[C@H](C)[C@H](NC(=O)[C@@H]1CCCN1C(=O)[C@@H](O)[C@H](Cc1ccccc1)NC(=O)[C@H](CO)NC(=O)Cc1ccccc1)C(=O)N[C@H](C(N)=O)C(C)C", "result": ">5 µM"}
{"compound": "CC(=O)Nc1ccc(S(=O)(=O)N(Cc2ccccc2)C[C@@H](O)[C@H](CCc2ccccc2)NC(=O)Cc2c[nH]c3ccccc23)cc1", "result": "0.014 µM"}
{"compound": "CC1(C)CC[C@]2(C(=O)O)CC[C@]3(C)C(=CCC4[C@@]5(C)CC[C@@H](NC(=O)CCCCC(=O)O)C(C)(C)C5CC[C@]43C)C2C1", "read by": "HPLC", "result": "2.1 µM"}
{"compound": "COC(=O)CCCC(=O)O[C@H]1CC[C@@]2(C)C(CC[C@]3(C)C2CC=C2C4[C@@H](C)[C@H](C)CC[C@]4(C(=O)OC)CC[C@]23C)C1(C)C", "result": ">50 µM"}
{"compound": "CCN(CC[C@@H](O)[C@H](Cc1ccccc1)NC(=O)c1cccc(O)c1C)S(=O)(=O)c1ccc(OC)cc1", "result": "0.9 µM"}
{"compound": "CC1(C)CC[C@]2(C(=O)O)CC[C@]3(C)C(=CCC4[C@@]5(C)CC[C@H](OC(=O)CC(=O)O)C(C)(C)C5CC[C@]43C)C2C1", "result": "8 µM"}
{"compound": "CC(C)(C)NC(=O)[C@H]1N(C(=O)[C@@H](O)[C@H](Cc2ccccc2)NC(=O)[C@H](CSN)NC(=O)COc2cccc3cnccc23)CSC1(C)C", "result": "<0.05 µM"}
{"compound": "Cc1c(O)cccc1C(=O)N[C@@H](Cc1ccccc1)[C@H](O)CCN(Cc1ccccc1)[C@@H](Cc1ccccc1)C(=O)NC(C)(C)C", "result": "4.3 µM"}
{"compound": "N[C@@H](Cc1ccccc1)C(=O)N[C@@H](CO)C(=O)N[C@@H](Cc1ccccc1)[C@H](O)C(=O)NCC1CCCCC1", "result": "<1000 µM"}
{"compound": "CCCOCCCNC(=O)[C@@H](NC(=O)[C@H](Cc1ccc(OC)c(OC)c1OC)C[C@H](O)[C@H](Cc1ccccc1)NC(=O)OC(C)(C)C)C(C)C", "read by": "fluorescence", "result": "0.003 µM"}
{"compound": "CC1(C)CC[C@]2(C(=O)NCCCCCC(=O)O)CC[C@]3(C)C(=CCC4[C@@]5(C)CC[C@H](OC(=O)CCCCC(=O)O)C(C)(C)C5CC[C@]43C)C2C1", "read by": "HPLC", "result": "1.7 µM"}
{"compound": "COc1ccc(C[C@H](C[C@H](O)[C@H](Cc2ccccc2)NC(=O)OC(C)(C)C)C(=O)N[C@H](C(=O)NCCN(C)C)C(C)C)cc1", "read by": "fluorescence", "result": "0.005 µM"}
{"compound": "CC1(C)CC[C@]2(C(=O)NCCCCCC(=O)O)CC[C@]3(C)C(=CCC4[C@@]5(C)CC[C@H](O)C(C)(C)C5CC[C@]43C)C2C1", "read by": "HPLC", "result": "1.7 µM"}
{"compound": "Cc1nsc(C)c1CNC(=O)[C@H]1N(C(=O)[C@@H](O)C[C@@H](Cc2ccccc2)C(=O)N[C@H]2c3ccccc3OC[C@H]2O)COC12CCCC2", "result": "0.00011 µM"}
{"compound": "CSC[C@H](NC(=O)COc1cccc2ccccc12)C(=O)N[C@@H](Cc1ccccc1)[C@H](O)C(=O)N1CCC[C@H]1C(=O)NC(C)(C)C", "result": "<0.05 µM"}
{"compound": "Cc1nc(COC(=O)N[C@H](C(=O)N[C@@H](Cc2ccccc2)[C@H](O)CN2CCN(Cc3ccc4c(c3)OCO4)C[C@H]2C(=O)NC(C)(C)C)C(C)C)cs1", "read by": "substrate cleavage", "result": "~0.0005 µM"}
{"compound": "CC1(C)CC[C@]2(C(=O)O)CC[C@]3(C)C(=CCC4[C@@]5(C)CC[C@H](NC(=O)CCCCC(=O)O)C(C)(C)C5CC[C@]43C)C2C1", "read by": "HPLC", "result": "3 µM"}
{"compound": "O=c1c(O[C@@H]2O[C@H](CO)[C@H](O)[C@H](O)[C@H]2O)c(-c2ccc(O)c(O)c2)oc2cc(O)cc(O)c12", "result": ">100 µM"}
{"compound": "CC1(C)CC[C@]2(C(=O)O)CC[C@]3(C)C(=CCC4[C@@]5(C)CC[C@H](NC(=O)CCCCC(=O)N[C@H]6CC[C@@]7(C)C(CC[C@]8(C)C7CC=C7C9CC(C)(C)CC[C@]9(C(=O)O)CC[C@]78C)C6(C)C)C(C)(C)C5CC[C@]43C)C2C1", "read by": "HPLC", "result": "3.3 µM"}
{"compound": "Cc1ccc(S(=O)(=O)N(CC[C@@H](O)[C@H](Cc2ccccc2)NC(=O)c2cc(C)cc(O)c2C)C(C)C)cc1", "result": "2.5 µM"}
{"compound": "CS(=O)(=O)C[C@H](NC(=O)COc1cccc2ccccc12)C(=O)N[C@@H](Cc1ccccc1)[C@H](O)C(=O)N1CCC[C@H]1C(=O)Nc1cccc(O)c1", "result": ">0.05 µM"}
{"compound": "CC(C)(C)OC(=O)N[C@@H](Cc1ccccc1)C(=O)NC(CO)NC(=O)[C@H](Cc1ccccc1)NC(=O)OC(C)(C)C", "read by": "substrate cleavage", "result": "8.8 µM"}
{"compound": "COC(=O)[C@]12CCC(C)(C)C[C@H]1C1=CC[C@@H]3[C@@]4(C)CC/C(=N\\OC(=O)CCCCC(=O)Oc5c(OC)ccc6c5[C@@]57CCC(C)[C@@H](C6)C5=C(OC)C(OC(C)=O)C(OC(C)=O)C7)C(C)(C)[C@@H]4CC[C@@]3(C)[C@]1(C)CC2", "read by": "HPLC", "result": ">100 µM"}
{"compound": "N[C@@H](Cc1ccccc1)C(=O)NC(CO)NC(=O)[C@@H](N)Cc1ccccc1", "read by": "substrate cleavage", "result": ">10 µM"}
{"compound": "Nc1ncnc2c1ncn2[C@@H]1O[C@H](CO)[C@@H](O)[C@H]1O", "result": ">100 µM"}
{"compound": "Cc1noc(C)c1CNC(=O)[C@H]1N(C(=O)[C@@H](O)C[C@@H](Cc2ccccc2)C(=O)N[C@H]2c3ccccc3OC[C@H]2O)COC12CCCC2", "result": "0.0001 µM"}
{"compound": "O=C(N[C@@H](Cc1ccccc1)C(=O)NC(CCO)NC(=O)[C@@H](Cc1ccccc1)NC(=O)OCC1c2ccccc2-c2ccccc21)OCC1c2ccccc2-c2ccccc21", "read by": "substrate cleavage", "result": ">10 µM"}
{"compound": "NC(=O)C[C@H](NC(=O)COc1cccc2ccccc12)C(=O)N[C@@H](Cc1ccccc1)[C@H](O)C(=O)N1CSC[C@H]1C(=O)NC1CC1", "result": "<0.05 µM"}
{"compound": "C=C(C)[C@@H]1CC[C@]2(C(=O)OC)CC[C@]3(C)[C@H](CC[C@@H]4[C@@]5(C)CC[C@H](O)C(C)(C)[C@@H]5CC[C@]43C)[C@@H]12", "result": ">25 µM"}
{"compound": "COc1ccc(C[C@H](C[C@H](O)[C@H](Cc2ccccc2)NC(=O)OC(C)(C)C)C(=O)N[C@H](C(=O)N[C@@H](Cc2ccccc2)C(=O)N2CCOCC2)C(C)C)cc1", "read by": "fluorescence", "result": "0.004 µM"}
{"compound": "CC(C)(C)NC(=O)[C@H]1N(C(=O)[C@@H](O)[C@H](Cc2ccccc2)NC(=O)[C@H](CC(N)=O)NC(=O)OCc2ccccc2)CCC1(C)C", "result": "<0.05 µM"}
{"compound": "COC(=O)[C@]12CC[C@@H](C)[C@H](C)[C@H]1C1=CC[C@@H]3[C@@]4(C)CC[C@H](O)C(C)(C)[C@@H]4CC[C@@]3(C)[C@]1(C)CC2", "result": "14 µM"}
{"compound": "COC(=O)[C@]12CCC(C)(C)CC1C1=CCC3[C@@]4(C)CC/C(=N\\OC(=O)CCCCC(=O)O)C(C)(C)C4CC[C@@]3(C)[C@]1(C)CC2", "read by": "HPLC", "result": "4 µM"}
{"compound": "CC(=O)N(CC[C@@H](O)[C@H](Cc1ccc2ccccc2c1)NC(=O)c1cccc(O)c1C)[C@@H](Cc1ccccc1)C(=O)NC(C)(C)C", "result": "0.041 µM"}
{"compound": "CC(C)[C@H](NC(=O)[C@H](Cc1ccc2c(c1)OCO2)C[C@H](O)[C@H](Cc1ccccc1)NC(=O)OC(C)(C)C)C(=O)NCCN(C)C", "read by": "fluorescence", "result": "0.0075 µM"}
{"compound": "O=C(N[C@@H](Cc1ccccc1)C(=O)NC(CO)NC(=O)[C@H](Cc1ccccc1)NC(=O)OCc1ccccc1)OCc1ccccc1", "read by": "substrate cleavage", "result": "5.2 µM"}
{"compound": "CC[C@H](CC[C@@H](C)[C@H]1CC[C@H]2[C@@H]3CC=C4C[C@@H](O)CC[C@]4(C)[C@H]3CC[C@]12C)C(C)C", "result": ">100 µM"}
{"compound": "CC(C)(C)NC(=O)[C@@H]1C[C@]2(C)CCCC[C@]2(C)CN1C[C@@H](O)CNc1ccc2[nH]ccc2c1", "result": "176 µM"}
{"compound": "C[C@@H]1CC[C@]2(C(=O)O)CC[C@]3(C)C(=CCC4[C@@]5(C)CC[C@H](OC(=O)CCCC(=O)O)C(C)(C)C5CC[C@]43C)C2[C@H]1C", "result": "4 µM"}
{"compound": "CC1(C)CC[C@]2(C(=O)O)CC[C@]3(C)C(=CC[C@@H]4[C@@]5(C)CC/C(=N\\O)C(C)(C)[C@@H]5CC[C@]43C)[C@@H]2C1", "read by": "HPLC", "result": "5.5 µM"}

Repeating the final 5 entries:

O=C(N[C@@H](Cc1ccccc1)C(=O)NC(CO)NC(=O)[C@H](Cc1ccccc1)NC(=O)OCc1ccccc1)OCc1ccccc1 ; read by: substrate cleavage ; result: 5.2 µM
CC[C@H](CC[C@@H](C)[C@H]1CC[C@H]2[C@@H]3CC=C4C[C@@H](O)CC[C@]4(C)[C@H]3CC[C@]12C)C(C)C ; result: >100 µM
CC(C)(C)NC(=O)[C@@H]1C[C@]2(C)CCCC[C@]2(C)CN1C[C@@H](O)CNc1ccc2[nH]ccc2c1 ; result: 176 µM
C[C@@H]1CC[C@]2(C(=O)O)CC[C@]3(C)C(=CCC4[C@@]5(C)CC[C@H](OC(=O)CCCC(=O)O)C(C)(C)C5CC[C@]43C)C2[C@H]1C ; result: 4 µM
CC1(C)CC[C@]2(C(=O)O)CC[C@]3(C)C(=CC[C@@H]4[C@@]5(C)CC/C(=N\O)C(C)(C)[C@@H]5CC[C@]43C)[C@@H]2C1 ; read by: HPLC ; result: 5.5 µM

ICn is the concentration giving n% inhibition.